Assay results reported in patent publication US20030191083.
The exact form of at least one protein or probe is not confirmed.

Chains of the proteins cited; added tags and fusions are not shown. Lines headed by an entry give the natural chain unless they say otherwise; changes in a name come on top.
UniProt A8YYS2: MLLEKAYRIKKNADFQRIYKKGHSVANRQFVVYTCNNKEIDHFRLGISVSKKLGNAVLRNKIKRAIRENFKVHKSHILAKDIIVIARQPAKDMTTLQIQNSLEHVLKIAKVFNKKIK

Molecular target: T1, RNase P protein (SPP, SP protein) (Staphylococcus aureus) (UniProt A8YYS2)
T1 sequence: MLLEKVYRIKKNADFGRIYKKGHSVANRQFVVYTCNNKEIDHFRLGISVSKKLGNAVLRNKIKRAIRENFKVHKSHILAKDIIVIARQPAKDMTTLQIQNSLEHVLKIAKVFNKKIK
Experiment: EMSA
Details: gel shift showed specific binding; purified recombinant protein; label: 3'-end label

“GUUCUGAUAUUUUGGGUAAUCGCUAUAUUAUAUAGAGGAAAGUCCAUGCUCACACAGUCUGAGAUGAUUGUAGUGUUCGUGCUUGAUGAAACAAUAAAUCAAGGCAUUAAUUUGACGGCAAUGAAAUAUCCUAAGUCUUUCGAUAUGGAUAGAGUAAUUUGAAAGUGCCACAGUGACGUAGCUUUUAUAGAAAUAUAAAAGGUGGAACGCGGUAAACCCCUCGAGUGAGCAAUCCAAAUUUGGUAGGAGCACUUGUUUAACGGAAUUCAACGUAUAAACGAGACACACUUCGCGAAAUGAAGUGGUGUACGACAGAUGGUUAUCACCUGAGUACCAGUGUGACUAGUGCACGUGAUGAGUACGAUGGAACAGAACAUGGCUUAUAGAAAUAUCACUACUA [S. aureus RNase P RNA (SP RNA)]”: binds.
